Data: ChEMBL document CHEMBL1128211, “3D-quantitative structure-activity relationships of human immunodeficiency virus type-1 proteinase inhibitors: comparative molecular field analysis of 2-heterosubstituted statine derivatives-implications for the design of novel inhibitors” (J Med Chem, 1995)

Target: Human immunodeficiency virus type 1 protease (Human immunodeficiency virus 1, UniProt Q72874)
Test: Inhibitory activity was determined against HIV type 1 protease

Ki: 0.851 µM
SMILES: NC(=O)C[C@H](NC(=O)COc1ccccc1)C(=O)N[C@@H](Cc1ccccc1)[C@@H](O)[C@@H](NCc1ccccc1)C(=O)NCc1ccccc1
